According to article PMC6099630, “Synthesis, Antiviral and Cytotoxic Activity of Novel Terpenyl Hybrid Molecules Prepared by Click Chemistry” (Molecules : A Journal of Synthetic Chemistry and Natural …, 2018):

Tests used:
HSV-1 Field strain = assay: Cytopathic effect assay, HSV-1 Field; format: cell-based, herpes simplex virus type 1 (HSV-1); settings: selectivity index SI = CC50/CE50; CC50 on Vero cells
Method: (§1) The synthetic compounds and acyclovir (ACV, Sigma) were dissolved in dimethylsulfoxide (DMSO) and diluted with Eagle’s minimal essential medium supplemented with 1.5% inactivated fetal bovine serum (FBS) and 50 μg/mL gentamicin (MEM 1.5%).
(§2) Vero and Hep-2 cells were grown in MEM supplemented with 10% inactivated FBS and 50 µg/mL gentamicin and maintained in MEM 1.5%. Raw 264.7 cells were grown in Dulbecco’s Modified Eagle’s Medium (DMEM) supplemented with 10% FBS and 50 µg/mL gentamicin and maintained in DMEM 1.5%. C6 cells were grown in DMEM-F12 supplemented with 2.5% FBS50 µg/mL gentamicin and 15% horse serum (HS) and maintained in DMEM-F12 supplemented with 1.5% FBS. HSV-1 KOS, thymidine kinase-deficient (TK−) B2006 and Field strains of HSV-1 were used and propagated at low multiplicity of infection (m.o.i.) on Vero cells.
(§3) Cells grown in 96-well plates were infected or not with HSV-1 (KOS, Field and B2006 strains) at a m.o.i. of 0.1 PFU/cell. After 1-h adsorption at 37 °C, the inoculum was removed and medium containing or not the compounds was added, in triplicate. […] Then, cells were fixed with 10% formaldehyde for 15 min at room temperature, washed once with distilled water and stained with 0.05% crystal violet in 10% ethanol over 30 min. […] The absorbance of each well was measured on an Eurogenetics MPR-A 4i microplate reader using a test wave-length of 590 nm.

[1] = tested on: HSV-1 B2006 strain (thymidine kinase-deficient, TK−); format: cell-based, herpes simplex virus type 1 (HSV-1); settings: selectivity index SI = CC50/CE50; CC50 on Vero cells
Method: as §1, §2, §3

SMILES: Nc1nc2c(ncn2COCCO)c(=O)[nH]1 [ACV, Acyclovir]
- SI Field (HSV-1 Field strain): >13.7
- SI B2006 [1]: >20
